In PMC10746192:
Construct, isoform or probe ends are uncertain for at least one entry. Tags and fusion partners may be left off the protein sequences shown.

Tested on: T1, Rpn4 (His-tagged recombinant) (Candida auris)
T1 sequence (looked up, limits assumed): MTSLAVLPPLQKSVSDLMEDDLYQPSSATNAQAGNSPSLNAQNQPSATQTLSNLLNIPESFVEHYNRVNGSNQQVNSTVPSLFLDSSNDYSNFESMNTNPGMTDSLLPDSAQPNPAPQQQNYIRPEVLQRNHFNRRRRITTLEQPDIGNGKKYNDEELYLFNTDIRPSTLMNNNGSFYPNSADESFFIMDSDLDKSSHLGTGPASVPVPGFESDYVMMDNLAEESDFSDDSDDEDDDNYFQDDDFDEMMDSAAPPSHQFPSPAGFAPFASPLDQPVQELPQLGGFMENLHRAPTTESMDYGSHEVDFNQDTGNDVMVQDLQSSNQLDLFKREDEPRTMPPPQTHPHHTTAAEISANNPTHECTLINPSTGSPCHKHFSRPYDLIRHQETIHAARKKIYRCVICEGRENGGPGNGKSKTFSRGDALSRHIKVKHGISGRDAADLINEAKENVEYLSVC
Assay: EMSA
Conditions: […] (binding buffer not stated), recombinant protein, protein details: His, probe letters rebuilt from the primers and the genome

Sequence	binding result
GGTTTCTCGGACATGGAGATGGAAAAGTGAAGATTTGCCTTTAAAGTGGACTACATGCGATATATATATTGGCAGGCGAAAAGAAATGCCAAACAATGTCGCAGAGGGAGAGGTAGAAGCAGCCCCAGCTACGCTGCAGGAGCAGCAGGCATGAGATAGGGAATTCTGGCGGCAAATAGCGTATTGTGCGAGAGTTGCGCACGTTGGAGACGGCTGGCGGTGGAACTTCGGAAGGTGCGAGTTCCGGCTCTGGCCACTCCCACCGGGAGCCTGGCGGTGCACATTTAATCACTGGGGACAAAATGCCACAAAAAAACCGCCCTTCTCAGCCCTAACCACATACAACAAAAATAACCACCAGCTTCATAACCTGTGGGCAACAACTGGAGTCTCCACTTCC (double strand) [PCDR1]	binds
TTTTGTTGCTTCTCGAAGTGCTACCTGGTCACTTAGAAGGCTGTGGAAGGATAGCGAAGGCTTCGAAAAAAGCTAAAGTTCGAGGTGGAAAGGTAAGGGTTTTTGGTTTGTGTAATTTGGATGAGTCCAGTCAAACACACTACAGGCCAAGCTTAGGTAAGAATTTCCTGAGCTGTAAGAAGAGTGTGTTGTGAGATGAGAAAGAAAATGTGAGAAATGGTGGCAAATATATATGGAGCTTACTAATGCAGGCTGAGGTGGCGTGCAGCACCGAAGCCCCAGAACAGATAAGACCTAGAAAATATGGGCTGCGAATCTGGCAGGTGAATTGGACCGGGAGGGTACCACCAAGATGAGGCCCACAATGATGCTAGAAAATCTCTGAAAACACCAACATGTTGCTCCCGTTCTTCTGATTATAGAAATGCAGTTTTCCCTCTCTTGGAACC (double strand) [PRPN4]	binds
